Measured values from several laboratories, pooled; numbers as filed in NIAID ChemDB.

All rows: toxicity to cultured cells; cells: Huh 5-2; read-out: CC50

Lines come from different laboratories, so protocols vary. Blank or dashed fields: not listed here. CCn: concentration that lowers growth or viability of the cells by n%.

structure	method	value
NC(=O)c1nc(C#CCc2ccc(C(F)(F)F)cc2)n(COCCO)n1		20 µg/mL
Cc1cccc(COc2c(-c3ccccc3)cc3occc(=O)c3c2O)c1	WST	45 µM
O=C(O)c1cc(C2CCCCC2)c(=O)n2c1sc1ccc(OC3CCCCC3)cc12	MTS	23 µM
[N-]=[N+]=NC[C@@]1(O)[C@@H](CO)O[C@@H](n2cnc3cncnc32)[C@@H]1O	WST	>100 µM
COC(=O)/C=C1\S/C(=N/N=C/c2ccc(OC)cc2)NC1=O	MTS / absorbance	36.9 µM
COc1ccccc1N1CCN(C(=O)CNc2ccc(S(=O)(=O)/N=C3\NC(=O)/C(=C/c4ccc(-c5ccccc5)cc4)S3)cc2)CC1	MTS	>75 µM
COC(=O)/C=C1\S/C(=N/N=C/c2cccc(Br)c2)NC1=O	MTS / absorbance	23.2 µM
COc1cccc(-c2nc3ccn(Cc4ccc(Br)cc4)cc-3n2)c1		2 µg/mL
NC(=O)c1nc(C#CCc2ccccc2)n(COCCO)n1		>50 µg/mL
COC(=O)/C=C1\S/C(=N/N=C/c2c(F)cccc2Cl)NC1=O	MTS / absorbance	>50 µM
COc1ccc(/C=C2\S/C(=N/S(=O)(=O)c3ccc(C)cc3)NC2=O)cc1	MTS	68.04 µM
Cc1ccc(CC#Cc2nc(C(N)=O)nn2COCCO)cc1		>50 µg/mL
CC(=O)OC[C@H]1O[C@@H](n2c(=S)[nH]c3cc(C)ccc32)[C@H](OC(C)=O)[C@@H](OC(C)=O)[C@@H]1OC(C)=O		>101 µM
Cc1ccc(S(=O)(=O)/N=C2\NC(=O)/C(=C/c3ccccc3Cl)S2)cc1	MTS	76.1 µM
COC(=O)/C=C1\S/C(=N/N=C/c2ccccc2OCc2ccccc2)NC1=O	MTS / absorbance	23.9 µM
NC(=O)c1nc(C#CCCCCCl)n(COCCO)n1		>50 µg/mL
Brc1ccc(Cn2ccc3nc(-c4ccccn4)nc-3c2)cc1		24 µg/mL
[N-]=[N+]=NC[C@@]1(O)[C@@H](CO)O[C@@H](n2cnc3c(N)ncnc32)[C@@H]1O	WST	12.3 µM
O=C1N/C(=N\S(=O)(=O)c2ccc(Cl)cc2)S/C1=C\c1ccccc1Cl	MTS	>121 µM
O=c1ccoc2cc(-c3ccccc3)c(OCc3cccc(Cl)c3)c(O)c12	WST	54 µM
Cc1cc(C)c2c(=O)c3cc(N)c(N4CCN(c5ccccn5)CC4)cc3n(C)c2c1		>50 µg/mL
COc1ccc(N(Cc2c(Cl)cccc2Cl)S(=O)(=O)c2cccc(C#N)c2)cc1C(=O)O	absorbance	>33 µM
COC(=O)/C=C1\S/C(=N/N=C/c2ccc(Cl)cc2)NC1=O	MTS / absorbance	>50 µM
NC(=O)c1nc(C#CCc2cccc(F)c2)n(COCCO)n1		29 µg/mL
N#Cc1cccc(COc2c(-c3ccccc3)cc3occc(=O)c3c2O)c1	WST	55 µM
CNc1ncnc2c1ncn2[C@@H]1O[C@H](CO)[C@](O)(CF)[C@H]1O	WST	>100 µM
NC(=O)c1nc(C#CCC2=CCCCC2)n(COCCO)n1		>50 µg/mL

The last 2 rows once more:

structure,method,value
CNc1ncnc2c1ncn2[C@@H]1O[C@H](CO)[C@](O)(CF)[C@H]1O,WST,>100 µM
NC(=O)c1nc(C#CCC2=CCCCC2)n(COCCO)n1,,>50 µg/mL